System: NaV channels endogenously expressed in GH3b6 cells
Experiment: FRET voltage sensor probe (VSP) assay of BTX-induced depolarization in GH3b6 cells
Type: cell-based, rat

Compound: Cc1c[nH]c(C)c1C(=O)OC(C)C1=CCC23OCCN(C)CC12CC(O)C12OC4(O)CCC1(C)C(CC=C32)C4 (stereo not drawn) [BTX, batrachotoxin, reference compound]
- Hill slope of BTX-induced VSP signal (GH3b6 cells, BTX concentration-response curve): 1.21 ± 0.26

Compound: NC1=N[C@H](O)[C@H]2[C@H]3O[C@]4(O)O[C@@H]([C@@H](O)[C@@]2(N1)[C@@H]4O)[C@]3(O)CO [TTX, tetrodotoxin, reference compound]
- Hill slope of TTX inhibition of BTX-induced VSP signal: 1.53 ± 41

Compound: thalmiculine [IA49]
- Hill Slope, inhibition of BTX-evoked VSP signal (GH3b6 cells, BTX 1 µM, n = 6): 1.50 ± 0.93

From article PMC9268414, “Screening an In-House Isoquinoline Alkaloids Library for New Blockers of Voltage-Gated Na^+ Channels Using Voltage Sensor Fluorescent Probes: Hits and Biases” (Molecules, 2022)
